We go through two molecules from the supplement of paper PMC4723716.

For this assay, the system named is Plasmodium falciparum NF54 gametocytes. The assay is described as follows: viability index relative to DMSO control (fraction); higher = less gametocyte killing. Particulars: 12.5 µM, incubation time: 72 h. Put shortly: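 P. falciparum NF54 gametocytes at stages I–V were treated with compound at 12.5 µM for 72 hr at 37°C under low oxygen in serum-containing medium (0.50% gametocytemia, 1.25% hematocrit), then stained with MitoTracker Red CMXRos and imaged in serum-free medium containing 500 nM dye. The viability index is the gametocyte particle count divided by the plate mean of solvent-only wells.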

[1] abbreviates: gametocyte stage: Stage I viability index.
The mark [2] stands for this setting: gametocyte stage: Stage II viability index.
Where [3] appears, read: gametocyte stage: Stage III viability index.
Setting [4] is: gametocyte stage: Stage IV viability index.
Where [5] appears, read: gametocyte stage: Stage V viability index.

The entries are a selection whose mix differs from that of the whole data set.

For the molecule `CCC1(C)CC(CCNCc2ccccc2O)(c2ccc(C)cc2)CCO1` (stereo not given), the viability index by setting is: under setting [1], 0.0552; under setting [2], 0.134; under setting [3], 0.521; under setting [4], 0.663; under setting [5], 0.505.

With `c1ccc2c(NCCCCCCNc3c4c(nc5ccccc35)CCCC4)c3c(nc2c1)CCCC3`, the viability index reads like this: under setting [1], 0.166; under setting [2], 0.0216; under setting [3], 0.0448; under setting [4], 0.0538; under setting [5], 0.0519.
